Each structure is given as a SMILES string. This is a selection; strong and weak results do not stand in their true shares. Calls of active or inactive are those of the source. Calls follow the shape of the dose curve; as a rule, active = well fitted inhibition curve with a large enough effect; inconclusive = small, poorly fitted or top-dose-only effect; inactive = flat fitted curve, though single readings scatter.

A short description of this assay: qHTS for Inhibitors of Vif-A3F Interactions: qHTS. Also: % of control where 0% means no effect; nearly all actives have a fitted effect of over 65% in size. Conditions: HeLa A3F-eYFP + Vif (tagged APOBEC3F with the HIV-1 protein that degrades it), YFP fluorescence increase; at 46.1 µM (top of the series). From the text: The recent discovery and characterization of host restriction factors, which provide a potent defense to invading retroviruses, has provided new targets for antiviral drug development. APOBEC3G (A3G) and APOBEC3F (A3F) are potent cytidine deaminases that block HIV-1 replication; HIV-1 expresses the Vif protein, which counteracts A3G and A3F by binding to them and inducing their proteasomal degradation. The Vif-A3G and Vif-A3F interactions provide two potential targets for development of small molecules which can interfere with the ability of Vif to degrade A3G or A3F. […] To identify inhibitors that can interfere with Vif mediated degradation of A3G and A3F, we have developed Hela cell lines that stably express A3G or A3F tagged with eYFP at the C-terminal end (A3G-eYFP or A3F-eYFP, respectively) and Vif. In the absence of an inhibitor, Vif induces degradation of A3G-eYFP and A3F-eYFP, and the cells are not fluorescent. In the presence of an inhibitor, it is expected that Vif will be unable to degrade A3G-eYFP and/or A3F-eYFP, resulting in an increase in yellow fluorescence. In this assays Vif A3F was screened against the Molecular Library Small Molecule Repository (MLSMR). NIH Chemical Genomics Center [NCGC] NIH Molecular Libraries Probe Centers Network [MLPCN] MLPCN Grant: MH093245 Assay Submitter (PI): Vinay Pathak, National Cancer Institute
5 uL of 700 cells/well of A3F-YFP cells are dispensed into black, clear bottom plates. The plates are incubated overnight at 37 deg C. 23 nL of compounds are added by pintool. The plates are incubated overnight at 37 deg C and then read on the TTP Acumen (Ex 488/ Em 500-530).
Turning to `N/C(=N\O)c1c(N)no[n+]1[O-]`, the activity, negative = active is inactive: -0.11%.

For the compound `CCOC(=O)N1CCC(Nc2ccc(C)cc2)CC1`, the activity, negative = active is inactive: -13.9%.

As for `CCc1cc(C(=O)NCC2(N3CCCCC3)CCCCC2)sc1C`, the activity, negative = active is inactive: -0.924%.

Consider `O=C(OC1CN2CCC1CC2)C1c2ccccc2C=Cc2ccccc21` (configuration not stated), for which the activity, negative = active is inactive: -0.828%.

As to `O=C(O)c1cccc(Nc2c([N+](=O)[O-])cc([N+](=O)[O-])cc2[N+](=O)[O-])c1`, the activity, negative = active is inactive: -13.2%.

For the compound `O=C(NCC1(N2CCOCC2)CCCCC1)c1cc(Br)ccc1Cl`, the activity, negative = active is inactive: -2.1%.

Regarding `COc1cc(C(=O)NCC2(N3CCOCC3)CCCCC2)cc(OC)c1C`, the activity, negative = active was inactive: -5.73%.

For `COc1ccc(C(=O)NCC2(N3CCOCC3)CCCCC2)cc1OC`, the activity, negative = active is inactive: -7.11%.

Turning to `c1ccc(CN2CCC(Nc3ccccc3)CC2)cc1`, the activity, negative = active was inactive: -4.03%.

As for `Cc1cc(N(CCCl)CCCl)ccc1C=O`, the activity, negative = active was inactive: 10.5%.

As to `O=C(NCC1(N2CCOCC2)CCCCC1)c1ccccc1`, the activity, negative = active was inactive: 2.34%.

Regarding `CCCN1CCC(Nc2cc(OC)cc(OC)c2)CC1`, the activity, negative = active was inactive: 8.59%.

With `CN(C)C1(CNC(=O)c2cccc(C#N)c2)CCCCC1`, the activity, negative = active was inactive: -10.2%.

In the case of `CC(C)(C)OC(=O)N1CCC(N(C(=O)c2ccccc2)c2ccc(Cl)cc2)CC1`, the activity, negative = active was inactive: 1.86%.

For the compound `O=C(NCC1(N2CCOCC2)CCCCC1)c1ccc([N+](=O)[O-])cc1`, the activity, negative = active is inactive: -4.28%.

For `N#Cc1ccc(C(=O)NCC2(N3CCCCC3)CCCCC2)cc1`, the activity, negative = active is inactive: 6.42%.

`O=C(NCC1(N2CCOCC2)CCCCC1)c1ccccc1[N+](=O)[O-]`: the activity, negative = active was inactive: -3.28%.

`CCOC(=O)C(CC)C1=NC(C)(C)Cc2ccccc21.O=[N+]([O-])c1cc([N+](=O)[O-])c(O)c([N+](=O)[O-])c1` (configuration not stated): the activity, negative = active was inactive: -1.78%.

Take `Cc1ccccc1NC1(C#N)CCN(Cc2ccccc2)CC1`: the activity, negative = active is inactive: 3.02%.

As to `CCN1CCC(Nc2cccc(F)c2)CC1`, the activity, negative = active was inactive: 1.13%.

For the compound `O=C(NCC1(N2CCCCC2)CCCCC1)c1ccco1`, the activity, negative = active was inactive: 3.14%.

In the case of `CC(C)(C)c1ccc(C(=O)NCC2(N3CCOCC3)CCCCC2)cc1`, the activity, negative = active is inactive: 0.658%.

Turning to `CN(C)c1ccc(C(=O)NCC2(N3CCCCC3)CCCCC2)cc1`, the activity, negative = active was inactive: -3.19%.

In the case of `Cn1c(=O)[nH]cc(N(CCCl)CCCl)c1=O`, the activity, negative = active was inactive: -8.98%.

With `Cc1ccccc1C(=O)NCC1(N(C)C)CCCCC1`, the activity, negative = active is inactive: 6.23%.

With `COc1cc(OC)cc(C(=O)NCC2(N3CCCCC3)CCCCC2)c1`, the activity, negative = active was inactive: -11.5%.

On to `CN(C)C1(CNC(=O)c2ccc(C(C)(C)C)cc2)CCCCC1`, for which the activity, negative = active was inactive: 3.04%.

Source of the values: PubChem BioAssay AID602313 (National Center for Advancing Translational Sciences (NCATS), 2012).
